Fitness of HIV-1 LAI Vif variants in SupT1-APOBEC3G cells

Vif of LAI (a laboratory-adapted subtype B strain), residues 12-115; positions count from the first residue of the whole protein:
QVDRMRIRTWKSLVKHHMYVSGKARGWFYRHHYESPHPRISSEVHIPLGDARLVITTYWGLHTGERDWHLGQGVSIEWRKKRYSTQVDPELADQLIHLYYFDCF

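Pooled viruses with one designed change each in Vif went through two 72 h rounds in SupT1 cells expressing APOBEC3G. Frequencies after the second round, in three biological replicates, were compared with the merged pool after the first round. The overlap of vif with pol had been removed, so integrase is unaffected.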

Values are log2 enrichment relative to wild type (0); lower means weaker defence against APOBEC3G and poorer growth.
Substitutions are written as wild-type residue, site number, new residue.
This list holds changes to lysine only.
The median of three replicates is given.
Input reads are the counts in the merged round-one pool, before selection.
Positive scores are uncertain; some enriched variants did not exclude APOBEC3G in a separate test.
Not every substitution is listed.
Replicates agree only moderately (rank correlation about 0.4-0.65); scores from under about 50 input reads tend to be too high.

* Q12K (input reads 39) = 0.51
* V13K (input reads 411) = 0.06
* R15K (input reads 337) = -1.01
* M16K (input reads 117) = -0.33
* R17K (input reads 2386) = -1.03
* I18K (input reads 90) = 0.21
* R19K (input reads 30) = 1.17
* T20K (input reads 148) = 1.11
* W21K (input reads 467) = -3.04
* S23K (input reads 82) = 0.18
* V25K (input reads 355) = -0.95
* H28K (input reads 165) = 2.75
* M29K (input reads 840) = 1.74
* Y30K (input reads 91) = 0.36
* V31K (input reads 1710) = -2.51
* S32K (input reads 24) = 1.21
* G33K (input reads 10989) = -2.03
* A35K (input reads 222) = 0.98
* R36K (input reads 1879) = -1.91
* F39K (input reads 497) = -2.23
* Y40K (input reads 100) = -0.95
* R41K (input reads 416) = -1.91
* H42K (input reads 779) = 1.39
* H43K (input reads 541) = -1.92
* S46K (input reads 460) = -3.22
* P47K (input reads 861) = -3.46
* H48K (input reads 817) = -4.04
* R50K (input reads 431) = -0.56
* S53K (input reads 114) = -4.60
* E54K (input reads 256) = -3.29
* V55K (input reads 291) = -2.38
* I57K (input reads 69) = 0.59
* L59K (input reads 199) = -1.31
* G60K (input reads 895) = -0.79
* V65K (input reads 24) = -2.40
* T67K (input reads 411) = -2.87
* T68K (input reads 2512) = -1.61
* Y69K (input reads 430) = -3.12
* W70K (input reads 82) = 0.20
* L72K (input reads 431) = -1.86
* T74K (input reads 839) = -1.30
* G75K (input reads 444) = -2.46
* E76K (input reads 967) = -3.37
* R77K (input reads 453) = -2.49
* D78K (input reads 457) = -1.35
* W79K (input reads 1382) = 0.20
* G82K (input reads 385) = -4.26
* Q83K (input reads 451) = 0.76
* G84K (input reads 402) = -1.90
* V85K (input reads 122) = 0.18
* S86K (input reads 176) = -1.99
* I87K (input reads 482) = -1.16
* E88K (input reads 20) = -1.71
* W89K (input reads 520) = -2.69
* R90K (input reads 1056) = -1.81
* T96K (input reads 342) = -4.10
* D99K (input reads 448) = -3.79
* P100K (input reads 98) = 0.11
* E101K (input reads 595) = -2.52
* L102K (input reads 63) = -3.04
* D104K (input reads 91) = -4.26
* Q105K (input reads 219) = -3.55
* L106K (input reads 69) = -3.45
* I107K (input reads 183) = -2.53
* H108K (input reads 856) = -1.17
* Y111K (input reads 59) = -0.43
* D113K (input reads 487) = -3.07
* F115K (input reads 127) = -2.03

5 of these entries, quoted again:

- T74K (input reads 839): -1.30
- D78K (input reads 457): -1.35
- W89K (input reads 520): -2.69
- G75K (input reads 444): -2.46
- E101K (input reads 595): -2.52

Data from the supplement of Langley et al. 2025, preprint, doi:10.1101/2025.10.20.683452.